Pooled drug test results. Numbers come from NIAID ChemDB, via PubChem.

Shared fields: tests in culture; agent: Candida albicans

A number after MIC or MFC names an inhibition level or a share of isolates. An empty or dashed field is not shown. Conditions beyond the fields shown may differ between rows.

smiles | read by | strain | measure | value
CCCn1sc2ncccc2c1=O | - | - | MIC | 30 µg/mL
Cc1ccc(S(=O)(=O)N/N=C2/C=C3C[C@H](O)C4C(CC[C@]5(C)[C@@H]([C@H](C)CCCC(C)C)CC[C@@H]45)[C@@]3(C)CC2)cc1 | - | CIP 1180-79 | MIC | >50 µg/mL
O=c1c2cccnc2sn1CCc1ccccc1 | - | - | MIC | 30 µg/mL
CC1(C)C(=O)CC[C@@]2(C)C1CC[C@]1(C)[C@@H]2[C@H](O)C=C2[C@@H]3C[C@@](C)(C(=O)O)CC[C@]3(C)CC[C@]21C | absorbance | - | MIC | 63 µg/mL
CC(C)CC(O)C(=O)O | broth dilution / visual reading | D 17 | MFC100 | 72000 µg/mL
Cc1ccc(S(=O)(=O)N/N=C2/CC3C/C(=N/NS(=O)(=O)c4ccc(C)cc4)CC[C@]3(C)C3CC[C@]4(C)[C@@H]([C@H](C)CCCC(C)C)CC[C@H]4C23)cc1 | - | CIP 1180-79 | MIC | >50 µg/mL
Cn1cc(-c2ccccc2)c(C(c2cccc3ccccc23)n2ccnc2)c1 | - | 33 strains | MIC90 | 64 µg/mL
CC(C)CC(=O)C(=O)O | broth dilution | D 17 | MFC100 | >72000 µg/mL
CC1(c2ccc(Cl)cc2)OCC(CO/N=C(\Cn2ccnc2)c2ccc(Cl)cc2)O1 | - | - | MIC | ≤10 µg/mL
S=c1c2cccnc2sn1CCCc1ccccc1 | - | - | MIC | 30 µg/mL
CCOC(=O)c1c(N)oc2ccc(O)cc12 | broth dilution | KCCM 50235 | MIC | 25 µg/mL
CC1(C)OCC(CO/N=C(\Cn2ccnc2)c2ccccc2)O1 | - | - | MIC | >10 µg/mL
CCCCCOc1ccc(-c2ccc(-c3ccc(C(=O)N[C@H]4C[C@@H](O)[C@@H](O)NC(=O)[C@@H]5[C@@H](O)[C@@H](C)CN5C(=O)[C@H]([C@H](C)O)NC(=O)[C@H]([C@H](O)[C@@H](O)c5ccc(O)cc5)NC(=O)[C@@H]5C[C@@H](O)CN5C(=O)[C@H]([C@H](C)O)NC4=O)cc3)cc2)cc1 | - | 63 isolates | MIC90 | 1 µg/mL
c1ccc(-c2c[nH]cc2C(c2ccc3ccccc3c2)n2ccnc2)cc1 | - | 33 strains | MIC90 | 16 µg/mL
CCOC(=O)c1c(N)oc2c(C)cc(O)c(C)c12 | broth dilution | KCCM 50235 | MIC | 25 µg/mL
c1ccc(CCCN=c2ssc3ncccc23)cc1 | - | - | MIC | 30 µg/mL
c1ccc(-c2c[nH]cc2C(c2cccc3ccccc23)n2ccnc2)cc1 | - | 33 strains | MIC90 | 16 µg/mL
Cc1ccc(S(=O)(=O)N/N=C2\CC[C@@]3(C)C(=C/C(=N/NS(=O)(=O)c4ccc(C)cc4)C4C3CC[C@]3(C)[C@@H]([C@H](C)CCCC(C)C)CC[C@@H]43)C2)cc1 | - | CIP 1663-86 | MIC | 25 µg/mL
Cn1cc(-c2ccccc2)c(C(c2ccc(-c3ccccc3)cc2)n2ccnc2)c1 | - | 33 strains | MIC90 | >256 µg/mL
CCCCCn1sc2ncccc2c1=S | - | - | MIC | 20 µg/mL
Cc1c(O)cccc1C(=O)N[C@@H](CSc1ccccc1)[C@H](O)CN1C[C@H]2CCCC[C@H]2C[C@H]1C(=O)NC(C)(C)C | - | I2 | MIC | 64 µg/mL
CC(C)CCC[C@@H](C)[C@H]1CC[C@H]2C3C/C(=N\Nc4ccccc4)C4C[C@@H](O)CC[C@]4(C)C3CC[C@]12C | - | CIP 1663-86 | MIC | 12.5 µg/mL
C[C@H]1[C@H](O)[C@@H](C)/C=C/C=C/C=C/C=C/C=C/C=C/C=C/[C@H](O[C@@H]2O[C@H](C)[C@@H](O)[C@H](N)[C@@H]2O)C[C@@H]2O[C@](O)(C[C@@H](O)C[C@@H](O)CC[C@H](O)[C@@H](O)C[C@@H](O)CC(=O)O[C@H]1C)C[C@H](O)[C@H]2C(=O)O | broth dilution | ATCC 10231 | MIC | 0.5 µM
Cn1cc(-c2ccccc2)c(C(c2ccc(Cl)s2)n2ccnc2)c1 | - | 33 strains | Mean MIC | >256 µg/mL
Cc1ccc(S(=O)(=O)N/N=C2C=C3/C(=N/NS(=O)(=O)c4ccc(C)cc4)CC4C(CC[C@]5(C)[C@@H]([C@H](C)CCCC(C)C)CC[C@@H]45)[C@@]3(C)CC/2)cc1 | - | CIP 1663-86 | MIC | 25 µg/mL
Nc1[nH]c(=O)ncc1F | broth dilution | KCCM 50235 | MIC | 25 µg/mL
CC1(C)OCC(CO/N=C(\Cn2ccnc2)c2ccc(Cl)cc2)O1 | - | - | MIC | ≤10 µg/mL
Cc1ccc(S(=O)(=O)N/N=C2/C=C3C[C@@H](O)CC[C@]3(C)C3CC[C@]4(C)[C@@H]([C@H](C)CCCC(C)C)CC[C@H]4C23)cc1 | - | CIP 1180-79 | MIC | 12.5 µg/mL
CCCCn1sc2ccc(F)cc2c1=O | - | - | MIC | 2.5 µg/mL
CN(C)c1ccc(C=Nc2ccc(S(=O)(=O)Nn3c(Cc4ccccc4Nc4c(Cl)cccc4Cl)nc4ccccc4c3=O)cc2)cc1 | broth dilution | - | MIC | >1000 µg/mL
c1ccc(CN=c2ssc3ncccc23)cc1 | - | - | MIC | 20 µg/mL
C[C@H]1[C@H](O)[C@@H](C)/C=C/C=C/C=C/C=C/C=C/C=C/C=C/[C@H](O[C@@H]2O[C@H](C)[C@@H](O)[C@H](N)[C@@H]2O)C[C@@H]2O[C@](O)(C[C@@H](O)C[C@@H](O)CC[C@H](O)[C@@H](O)C[C@@H](O)CC(=O)O[C@H]1C)C[C@H](O)[C@H]2C(=O)O | absorbance | - | MIC | 0.16 µg/mL

The last 3 rows once more:

smiles,read by,strain,measure,value
CN(C)c1ccc(C=Nc2ccc(S(=O)(=O)Nn3c(Cc4ccccc4Nc4c(Cl)cccc4Cl)nc4ccccc4c3=O)cc2)cc1,broth dilution,-,MIC,>1000 µg/mL
c1ccc(CN=c2ssc3ncccc23)cc1,-,-,MIC,20 µg/mL
C[C@H]1[C@H](O)[C@@H](C)/C=C/C=C/C=C/C=C/C=C/C=C/C=C/[C@H](O[C@@H]2O[C@H](C)[C@@H](O)[C@H](N)[C@@H]2O)C[C@@H]2O[C@](O)(C[C@@H](O)C[C@@H](O)CC[C@H](O)[C@@H](O)C[C@@H](O)CC(=O)O[C@H]1C)C[C@H](O)[C@H]2C(=O)O,absorbance,-,MIC,0.16 µg/mL